Earlier results as cited in article PMC10643566, “Insights into the mechanism of SARS-CoV-2 main protease autocatalytic maturation from model precursors” (Communications Biology, 2023).

Test system: FRET substrate Dabcyl-KTSAVLQ/SGFRKM-E(Edans)-NH2
Details: ref [11],[13]; cited from earlier work

MPro^1–199: MPro catalytic domain lacking the entire helical domain (residues 200–306), monomer
Catalytic/Binding species: Monomer
